How the values were obtained:
[1] = molecular target: HA of A/Puerto Rico/8/1934 (influenza A virus A/Puerto Rico/8/1934) (UniProt P03452)
[2] = molecular target: HA of A/Puerto Rico/8/1934 (influenza A virus A/Puerto Rico/8/1934) (UniProt P03452); assay: BLI

C05 V110P (antibody)
HAI, antibody concentration at the endpoint titer; virus A/Puerto Rico/8/1934 [1]: > 100 µg/mL | Kd [2]: 42 µM | koff [2]: 0.51 s⁻¹ | kon [2]: 12000 M⁻¹ s⁻¹
